According to US20250296984A1, “THERAPEUTIC AND DIAGNOSTIC AGENTS AND USES THEREOF” (priority 2022, published 2025):

B1: 13-1C10-1G9: mouse hybridoma subclone antibody against US28 ECD3 Peptide-1 and -2; sequenced (antibody)
heavy: EVKLVESGGGLVKPGGSLKLSCAASGFTFSSYAMSWVRQTPEKRLEWVASISSGGSTYYPDSVKGRFTISRDNARNILYLQMSSLRSEDTAMYYCARGGSTMITTGLGFAYWGQGTLVTVSAAKTTPPSVYPLAPGSAAQTNSMVTLGCLVKGYFPEPVTVTWNSGSLSSGVHTFPAVLQSDLYTLSSSVTVPSSTWPSETVTCNVAHPASSTKVDKKIVPRDCGCKPCICTVPEVSSVFIFPPKPKDVLTITLTPKVTCVVVDISKDDPEVQFSWFVDDVEVHTAQTQPREEQFNSTFRSVSELPIMHQDWLNGKEFKCRVNSAAFPAPIEKTISKTKGRPKAPQVYTIPPPKEQMAKDKVSLTCMITDFFPEDITVEWQWNGQPAENYKNTQPIMDTDGSYFIYSKLNVQKSNWEAGNTFTCSVLHEGLHNHHTEKSLSHSPGK
light: QIVLTQSPAIMSASPGEKVTMTCSASSSVSYMHWYQQKSGTSPKRWIYDTSKLASGVPARFSGSGSGTSYSLTISSMEAEDAATYYCQQWSSNPPLTFGAGTKLELKRADAAPTVSIFPPSSEQLTSGGASVVCFLNNFYPKDINVKWKIDGSERQNGVLNSWTDQDSKDSTYSMSSTLTLTKDEYERHNSYTCEATHKTSTSPIVKSFNRNEC
B2: 14-4E4-1E8: mouse hybridoma subclone antibody against US28 ECD3 Peptide-1 and -2; sequenced (antibody)
heavy: EVKLVESGGDLVKPGGSLKLSCAASGFTFSSYAMSWVRQTPEKRLEWVASISSGGRTYYPDSVKGRFTISRDNARNILYLQMSSLRSEDTAIYYCARGGTRHSYGNGFDYWGQGTTLTVSSAKTTPPSVYPLAPGSAAQTNSMVTLGCLVKGYFPEPVTVTWNSGSLSSGVHTFPAVLQSDLYTLSSSVTVPSSTWPSETVTCNVAHPASSTKVDKKIVPRDCGCKPCICTVPEVSSVFIFPPKPKDVLTITLTPKVTCVVVDISKDDPEVQFSWFVDDVEVHTAQTQPREEQFNSTFRSVSELPIMHQDWLNGKEFKCRVNSAAFPAPIEKTISKTKGRPKAPQVYTIPPPKEQMAKDKVSLTCMITDFFPEDITVEWQWNGQPAENYKNTQPIMDTDGSYFIYSKLNVQKSNWEAGNTFTCSVLHEGLHNHHTEKSLSHSPGK
light: B1 light with T5S, A9T, T50S, S91T, L96I

Target: T1, Peptide-2 […] (SEQ ID NO: 7), US28 ECD3 4D variant (Human cytomegalovirus)
T1 construct: made in house; host or cells: chemical synthesis
Assay: ELISA, binding to Bio-Peptide-2
Parameters: species or system HCMV
Details: 4D variant peptide
Procedure: Microtiter plate wells were coated with 100 μl of the solution containing: (i) Bio-Peptide-N; or (ii) Bio-Peptide-1 and Bio-Peptide-2; at a concentration of between 1-10 μg/ml in coating buffer, consisting of Na2CO3, 1.5 g and NaHCO3, 2.93 g in 1 L of distilled water in pH 9.6, and then incubated for 1-2 hours at room temperature. The plate was washed 3 times in wash buffer consisting of PBS containing 0.05% v/v Tween-20 and blotted with paper towels thereafter. 150 μl of blocking solution containing Phosphate buffered saline (PBS) containing 1% w/v BSA, was added to each well and the plate was incubated for 2 hours at 37° C. The wells were washed 4 times in wash buffer and blotted on paper towels after the last wash. 100 μl of antibody dilution was added to each well and the plate was incubated for 1 hour at 37° C. and thereafter washed 3 times in wash buffer. 100 μl enzyme-conjugated secondary antibody (appropriately diluted in wash buffer) was added to each well and the plate was incubated for 1 hour at 37° C. The wells were then again washed 3 times in wash buffer and blotted with paper towels after the last wash. […] The absorbance values were read immediately at the appropriate wavelength and the data analyzed by Cmax Plus, Molecular Devices, San Jose, CA 95134, USA, […]

| Molecule | Absorbance values, Peptide 2 |
| --- | --- |
| B1 | 3.065 |
| B2 | 2.871 |

Residue numbers refer to the chain shown, from its start.
